Data on one substance can be found in patent US20180228758A1, “COMPOSITIONS AND METHODS TO TREAT INFECTED EAR CONDITIONS” (published 2018).

One test concerns 54 strains of S. aureus. The test is described as follows: bactericidal activity against 54 strains of S. aureus.
The test system of test [1] is exotoxin production (Staphylococcus aureus, Streptococcus pyogenes, Streptococcus agalactiae, groups C, F, and G streptococci, and Clostridium perfringens). In words: inhibition of exotoxin production in gram-positive bacteria. The settings on record: independently from inhibition of growth; all gram-positive organisms tested.

With glycerol monolaurate, the “estimated chance of S. aureus developing resistance to GML” value with 54 strains of S. aureus is < 1/10. Moreover, the exotoxin production result in test [1] is given as “inhibited exotoxin production”.
